Experimental data reported in PubChem BioAssay AID651724 (National Center for Advancing Translational Sciences (NCATS), 2012).
This is a selection; strong and weak results do not stand in their true shares. Active and inactive are the calls of the source. No stated cut-off is given here; in the data, active means activity change below about -65%; inconclusive means mostly about -30% to -63%; inactive means weaker than that.

Tested on: CtBP / adenovirus E1A interaction (AlphaScreen)
Assay: qHTS Assay for Inhibitors of the CtBP/E1A Interaction
Details: AlphaScreen GST-E1A/His-CtBP binding, 1536-well; stronger effect = lower value
Procedure, shortened: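 GST-E1A and His-tagged CtBP (125 nM each as 5X stock) were preincubated with pin-transferred compound for 2 h at 37 °C in the dark, then glutathione donor and nickel acceptor beads were added for 1 h before AlphaScreen reading.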
On the % scale 0 is the no-effect control and ±100 the full control effect.

Row | Compound | activity change
1 | Cc1cc(SC(NC(=O)c2ccccc2)C(Cl)(Cl)Cl)nc(C(C)C)n1 (configuration not stated) | inactive: -1.24%
2 | CCCCOc1ccc(C(=O)NCC2(N3CCCCC3)CCCCC2)cc1OC | inactive: -1.42%
3 | COP(=O)(OC)N1CC1c1ccccc1 (configuration not stated) | inactive: -5.5%
4 | CC1CCNP(=O)(N(CCCl)CCCl)O1 (configuration not stated) | inactive: 12.4%
5 | CCOC(=O)Nc1ccc([As](=O)(O)O)c(O)c1 | inactive: 9.87%
6 | O=C(O)C(=O)c1ccc(N(CCCl)CCCl)cc1.c1ccc(Nc2ccccc2)cc1 | inactive: 27.5%
7 | CP(=O)(Nc1ccccn1)Oc1ccc(Cl)cc1 (configuration not stated) | inactive: 8.32%
8 | CCC(C)N(CC(C)C)C(=S)SC(NC(C)=O)C(Cl)(Cl)Cl (configuration not stated) | inactive: -7.44%
9 | CCOC(=O)c1ccc(NP(C)(=O)Oc2ccc(OC)cc2)cc1 (configuration not stated) | inactive: 0.573%
10 | CCOC(=O)c1ccc(NC(=O)C(C)(CCl)SC)cc1 (configuration not stated) | inactive: -1.56%
11 | O=[N+]([O-])c1cc([N+](=O)[O-])c(O)c([N+](=O)[O-])c1.c1ccc(Oc2ccncc2)cc1 | inactive: 4.92%
12 | CSc1ccc(Nc2c([N+](=O)[O-])cc([N+](=O)[O-])cc2[N+](=O)[O-])cc1 | inactive: -7.35%
13 | CCOP(C)(=S)SCC(=O)NC(C)C(=O)O (configuration not stated) | inactive: 2.42%
14 | O=C(OC1CN2CCC1CC2)c1cccc([N+](=O)[O-])c1 (configuration not stated) | inactive: 8.46%
15 | Cc1cc(C)cc(OP(C)(=O)Nc2ccc(SC(F)(F)F)cc2)c1 (configuration not stated) | inactive: -21%
16 | O=C(COc1ccccc1)OC1CN2CCC1CC2 (configuration not stated) | inactive: 0%
17 | CP(=O)(NC(=O)Nc1ccccc1)Oc1ccccc1 (configuration not stated) | inactive: -4.89%
18 | CP(=O)(Oc1ccccc1)OC(c1ccccc1)C(F)(F)F (configuration not stated) | inactive: 7.98%
19 | COC(=O)C1(C)COP(=O)(N2CCCC2)OC1 (configuration not stated) | inactive: -7.59%
20 | Cc1cccc(C)c1OP(C)(=O)Nc1ccc(SC(F)(F)F)cc1 (configuration not stated) | inactive: -7.77%
21 | COP1(=S)c2c(C)nn(CCC#N)c2N=C(c2ccc(F)cc2)N1C (configuration not stated) | inactive: 0.521%
22 | CN(C)C(=O)OCCc1n(C)cc[n+]1C | inactive: 10.8%
23 | CC(C)=N/N=C(\N)N[N+](=O)[O-] | inactive: 3.09%
24 | CC(C)c1nc(Nc2ccccc2)n(P(=O)(N(C)C)N(C)C)n1 | inactive: 4%
25 | c1cc(-c2nn[nH]n2)ccc1-c1nn[nH]n1 | inactive: -13.4%
26 | CC1CCN(C(=O)Oc2c(Cl)cc(Cl)c3cccnc23)CC1 | inactive: 8.16%

Row | Compound | activity change
27 | CC(C)(C)c1ccc(OP(C)(=O)O)cc1 | inactive: 4.72%
28 | Nc1ccc([As](=O)(O)c2ccc(N)cc2)cc1 | inactive: 5.08%
29 | COc1ccccc1OP(C)(=O)Nc1ccccc1Br (configuration not stated) | inactive: 6.4%
30 | CP(=O)(Nc1ccc(Cl)cc1)Oc1ccc(F)cc1 (configuration not stated) | inactive: 6.97%
31 | CCN(/C(=N/P(=O)(N1CCOCC1)N1CCOCC1)N1CCOCC1)c1ccc(OC)cc1 | inactive: 4.92%
32 | O=C(OCCCN1CCCC1)C(O)(c1ccccc1)C1CCCCC1 (configuration not stated) | inactive: -6.55%
33 | COc1ccccc1OP(C)(=O)Nc1c(C)n(C)n(-c2ccccc2)c1=O (configuration not stated) | inactive: -0.541%
34 | O=[N+]([O-])c1cccc2n[nH]nc12 | inactive: 10.5%
35 | CC(=O)N1C2C3N(C(C)=O)C1C1N(C(C)=O)C(C(N1C(C)=O)N3C(C)=O)N2C(C)=O | inactive: 9.27%
36 | CCc1nc2c(n1)c1c(non1O)c1c2no[n+]1[O-] | inactive: -2.23%
37 | O=[N+]([O-])c1cc([N+](=O)[O-])c(CCNc2ccccc2)c([N+](=O)[O-])c1 | inactive: -14.4%
38 | CCc1ccc(OP(C)(=O)Nc2cccnc2)cc1 (configuration not stated) | inactive: 2.4%
39 | CP(=O)(Oc1ccccc1)N1CCOC1=O (configuration not stated) | inactive: 3.62%
40 | Cc1ccc(NP(=O)(Oc2ccccc2)Oc2ccccc2)nc1 | inactive: 7.47%
41 | COc1ccc(OP(C)(=O)Nc2ccc(Br)cc2)cc1 (configuration not stated) | inactive: 11.2%
42 | COc1ccc(C2=NCC(CBr)S2)cc1 (configuration not stated) | inactive: 4.87%
43 | CCN(CC)CC(O)COC(=O)C(O)(c1ccccc1)C1CCCCC1 (configuration not stated) | inactive: 2.47%
44 | COC(=O)C1(C)COP(=O)(Nc2ccccc2)OC1 (configuration not stated) | inactive: -0.34%
45 | CC(C)(C)C(=O)NC(Sc1ccncn1)C(Cl)(Cl)Cl (configuration not stated) | inactive: 3.71%
46 | CCOC(=O)c1ccc(NP(C)(=O)Oc2ccc(Cl)cc2)cc1 (configuration not stated) | inactive: -4.9%
47 | CP(=O)(OC12CC3CC(CC(C3)C1)C2)OC12CC3CC(CC(C3)C1)C2 | inactive: -3.81%
48 | Nc1ccc2c(ccc3cccnc32)n1.O=[N+]([O-])c1cc([N+](=O)[O-])c(O)c([N+](=O)[O-])c1 | inactive: -23.6%
49 | O=P1(N(CCCl)CCCl)OCCCS1 (configuration not stated) | inactive: 1.51%
50 | CCN(N=Nc1nonc1N)c1nonc1N | inactive: 4.87%
51 | CP(=O)(OCCOc1ccccc1)OCCOc1ccccc1 | inactive: -13.4%
52 | CCCCCCCCCCCCCCCC1C[N+](C)(C)CCOP(C)(=O)O1 (configuration not stated) | inactive: 0%

Row | Compound | activity change
53 | CP(=O)(Nc1ccc(Cl)cc1Cl)Oc1ccccc1 (configuration not stated) | inactive: 0%
54 | Cc1ccc(NP(=O)(Oc2ccccc2F)Oc2ccccc2F)nc1 | inactive: 0.601%
55 | CN(C(=O)Cc1ccc(Cl)c(Cl)c1)[C@H]1CCCC[C@@H]1N1CCCC1 | inactive: 6.03%
56 | COc1ccccc1OP(C)(=O)Nc1ccc(C)c(C)c1 (configuration not stated) | inactive: 0.951%
57 | CCOP(=O)(Nc1ccccc1)OCC | inactive: -2.74%
58 | Cc1cc(SC(NC(=O)c2ccc(F)cc2)C(Cl)(Cl)Cl)ncn1 (configuration not stated) | inactive: 6.53%
59 | COc1ccc(OP(C)(=O)Nc2ccccc2Br)cc1 (configuration not stated) | inactive: -2.6%
60 | CCCC1OP(N)(=O)OCC1CC (configuration not stated) | inactive: 11.1%
61 | O=C(O)c1ccccc1[As](=O)(O)O | inactive: -5.38%
62 | CC(=O)Nc1ccc([As](=O)(O)O)cc1 | inactive: -1.5%
63 | Cc1cc(C)cc(OP(C)(=O)Nc2cccc(C(F)(F)F)c2)c1 (configuration not stated) | inactive: -21.9%
64 | CN(C)P(=O)(N(C)C)n1c(Nc2ccccc2)nnc1-c1ccccc1 | inactive: 1.75%
65 | O=P(Nc1nc2ccc(Cl)cc2s1)(c1ccccc1)c1ccccc1 | inactive: 6.63%
66 | COc1ccccc1OP(C)(=O)Nc1ccc(C)cc1C (configuration not stated) | inactive: -0.382%
67 | CP(=O)(Nc1ccccn1)Oc1ccccc1 (configuration not stated) | inactive: 1.87%
68 | CCc1ccc(OP(C)(=O)O)cc1 | inactive: -0.988%
69 | O=[N+]([O-])C1C(O)C(O)C([N+](=O)[O-])C(O)C1O (configuration not stated) | inactive: 1.92%
70 | CC(C)CC(=O)NC(Sc1ccc(Cl)cc1)C(Cl)(Cl)Cl (configuration not stated) | inactive: 0.696%
71 | O=[N+]([O-])c1cc([N+](=O)[O-])c(Nc2ccccn2)c([N+](=O)[O-])c1 | inactive: 1.14%
72 | Cc1c(NP(C)(=O)Oc2ccc(C(C)C)cc2)c(=O)n(-c2ccccc2)n1C (configuration not stated) | inactive: 6.59%
73 | Nc1cc(N)c2nonc2c1[N+](=O)[O-] | inactive: -9.17%
74 | O=C(NC(Sc1ccncn1)C(Cl)(Cl)Cl)c1ccccc1 (configuration not stated) | inactive: 12.6%
75 | Oc1ccccc1CNc1ccccn1 | inactive: 6.36%
76 | Cc1ccc(OP(=O)(Nc2nccs2)Oc2ccc(C)cc2)cc1 | inactive: 2.1%
77 | COc1ccc(OP(C)(=O)Nc2ccccn2)cc1 (configuration not stated) | inactive: 38.4%
78 | COc1ccccc1OP(=O)(Nc1ccc(C)cn1)Oc1ccccc1OC | inactive: -17.2%

Row | Compound | activity change
79 | Clc1ccc(Cl)c(NC2=NCC(CBr)S2)c1 (configuration not stated) | inactive: 1.75%
80 | CN(C)CCOC(=O)C(O)(c1ccccc1)C1CCCC1 (configuration not stated) | inactive: 11.2%
81 | CN1CCCC(OC(=O)C(c2ccccc2)c2ccccc2)C1 (configuration not stated) | inactive: -4.5%
82 | Cc1ccc(N/C(=N/P(=O)(N2CCOCC2)N2CCOCC2)N2CCOCC2)cc1 | inactive: 12.2%
83 | COc1ccccc1OP(C)(=O)Nc1ccc(Br)cc1 (configuration not stated) | inactive: 8.48%
84 | CN(C(=O)Cc1ccc(Cl)c(Cl)c1)[C@H]1CCCC[C@H]1N1CCCC1 | inactive: -4.53%
85 | CC(=O)Nc1ccc(Oc2c([N+](=O)[O-])cc([N+](=O)[O-])cc2[N+](=O)[O-])cc1 | inactive: -1.48%
86 | CC(=O)Nc1ccc([As](=O)(O)O)c(O)c1 | inactive: 10.8%
87 | COC(=O)C1(C)COP(=O)(NCc2ccccc2)OC1 (configuration not stated) | inactive: 1.78%
88 | N#C/C(=C\c1ccc(N(CCBr)CCBr)cc1)C(N)=O | inactive: 16.7%
89 | CC(=O)c1ccc(N2CC2c2ccncc2)cc1 (configuration not stated) | inactive: 9.15%
90 | C[C@@H]1C=CCP(=O)(Oc2ccccc2)O1 (some centres not stated) | inactive: 3.41%
91 | C[C@H]1OP(=O)(Oc2ccccc2)C[C@@H]2O[C@@H]21 (some centres not stated) | inactive: 3.73%
92 | Cc1ccccc1CN(C)C(=O)COC(=O)C(O)(c1ccccc1)c1ccccc1 | inactive: -14.6%
93 | O=C(OCCN1CCN(CCOCc2ccccc2)CC1)C(O)(c1ccccc1)c1ccccc1 | inactive: -6.39%
94 | CP(=O)(Nc1ccccc1F)Oc1ccccc1 (configuration not stated) | inactive: 40.6%
95 | CCc1cc(O)c([N+](=O)[O-])c(C)c1[N+](=O)[O-] | inactive: 6.35%
96 | CC(C)c1ccc(OP(C)(=O)Nc2ccc(SC(F)(F)F)cc2)cc1 (configuration not stated) | inactive: 1.97%
97 | CC(C)(C)C(=O)NC(Sc1ccccc1)C(Cl)(Cl)Cl (configuration not stated) | inactive: -0.628%
98 | O=P1(Nc2nc3ccc(Cl)cc3s2)COc2ccccc2O1 (configuration not stated) | inactive: -5.48%
99 | CP(=O)(Nc1ccccc1)Oc1ccc(F)cc1 (configuration not stated) | inactive: 3.52%
100 | CN(C)C(=O)Oc1noc2ccccc12 | inactive: 7.87%
101 | CCCCCOc1ccc(NP(C)(=O)Oc2ccc(Cl)cc2Cl)cc1 (configuration not stated) | inactive: -5.84%
102 | O=c1c2cc([N+](=O)[O-])ccc2[nH]c2c([N+](=O)[O-])cc([N+](=O)[O-])cc12 | inactive: -0.715%
